Test results taken from patent US20160024159A1, “Potent and selective inhibitors of Nav1.7” (published 2016).

What was measured:
Test in all cases: cell-based or functional assay
[1] = biological target: rat Nav1.7 voltage-gated sodium channel (rat) (UniProt O08562)
[2] = biological target: mouse Nav1.7 voltage-gated sodium channel (mouse) (UniProt Q62205)
[3] = biological target: human Nav1.7 voltage-gated sodium channel (human) (UniProt Q15858)
[4] = biological target: hNav1.4 channels in HEK293 cell (human) (UniProt P35499)
[5] = biological target: human Nav1.7 voltage-gated sodium channel (human) (UniProt Q15858); remark: listed apart in the source
[6] = biological target: human Nav1.6 voltage-gated sodium channel (human) (UniProt Q9UQD0)
[7] = biological target: human Nav1.5 voltage-gated sodium channel (human) (UniProt Q14524)
[8] = biological target: human Nav1.4 voltage-gated sodium channel (human) (UniProt P35499)
[9] = biological target: mouse Nav1.4 voltage-gated sodium channel (mouse) (UniProt Q9ER60)
[10] = biological target: human voltage-gated sodium channel Nav1.7 (human) (UniProt Q15858)
[11] = biological target: TTX-sensitive Nav channels in rat DRG neurons
[12] = biological target: human voltage-gated sodium channel Nav1.4 (human) (UniProt P35499)
[13] = biological target: human voltage-gated sodium channel Nav1.5 (human) (UniProt Q14524)
[14] = biological target: human voltage-gated sodium channel Nav1.3 (human) (UniProt Q9NY46)

In the case of “[Glu20,Trp29]JzTx-V(1-29) (peptide; modification not given)”, the PX rNav1.7 Tonic IC50 [1] is reported as 1.3 nM, the rNav1.7/hNav1.7 [1] is reported as 0.82 and the PX mNav1.7 Tonic IC50 [2] is reported as 5.08 nM. The mNav1.7/hNav1.7 [2] was 3.2, the PX hNav1.7 Tonic IC50 [3] was 1.59 nM and the Nav1.4 selectivity (fold over hNav1.7), PatchXpress [4] was greater than 1000 fold. It also gave a PX hNav1.7 Tonic IC50 [5] of 1.59 nM, a WCPC Mean IC50, partially inactivated [5] of 0.23 nM and a PX hNav1.6 Tonic IC50 [6] of 720 nM.
Substance “[Pra1; Nle6; Glu28]JzTx-V(1-29) (peptide; modification not given)” has a Nav1.5/Nav1.7 [7] of 17200 and a Nav1.4/Nav1.7 [8] of 555.
In the case of “Atz(PEG11-benzylthioacetamide)-[Nle6]JzTx-V(1-29) (peptide; modification not given)”, the PX hNav1.5 Tonic IC50 [7] is reported as 1980 nM, the PX hNav1.7 Tonic IC50 [5] is reported as 1.4 nM and the PX hNav1.4 Tonic IC50 [8] is reported as 13 nM.
Substance “Atz(Biotin)-[Nle6]JzTx-V(1-29) (peptide; modification not given)” has a PX hNav1.5 Tonic IC50 [7] of 5130 nM, a PX hNav1.7 Tonic IC50 [5] of 2.48 nM and a PX hNav1.4 Tonic IC50 [8] of 15.5 nM.
“Pra-[Nle6;Glu12]JzTx-V(1-29) (peptide; modification not given)” gave a PX rNav1.7 Tonic IC50 [1] of 0.58 nM, a rNav1.7/hNav1.7 [1] of 0.49 and a PX mNav1.7 Tonic IC50 [2] of 0.61 nM. It also gave a mNav1.7/hNav1.7 [2] of 0.51, a PX hNav1.7 Tonic IC50 [3] of 1.19 nM and a PX mNav1.4 Tonic IC50 [9] of 6.36 nM. For the same substance, the mNav1.4/mNav1.7 [9] was 10.
“Pra-[Nle6]JzTx-V(1-29) (peptide; modification not given)” gave a PX rNav1.7 Tonic IC50 [1] of 0.522 nM, a rNav1.7/hNav1.7 [1] of 0.44 and a PX mNav1.7 Tonic IC50 [2] of 0.511 nM. For the same substance, the mNav1.7/hNav1.7 [2] was 0.43, the PX hNav1.7 Tonic IC50 [3] was 1.2 nM and the PX mNav1.4 Tonic IC50 [9] was 0.18 nM. For the same substance, the mNav1.4/mNav1.7 [9] was 0.35, the IC50, IonWorks Quattro electrophysiology [10] was 0.008 µM and 0.013 µM and the PX hNav1.7 Tonic IC50 [5] was 1.2 nM. It also gave a PX hNav1.6 Tonic IC50 [6] of 67.9 nM.
In the case of “Pra-[Glu1,28;Nle6]JzTx-V(1-29) (peptide; modification not given)”, the PX rNav1.7 Tonic IC50 [1] is reported as 1.38 nM, the rNav1.7/hNav1.7 [1] is reported as 1.22 and the PX mNav1.7 Tonic IC50 [2] is reported as 9.48 nM. For the same substance, the mNav1.7/hNav1.7 [2] was 8.41, the PX hNav1.7 Tonic IC50 [3] was 1.13 nM and the PX mNav1.4 Tonic IC50 [9] was 259 nM. It also gave a mNav1.4/mNav1.7 [9] of 27, a PX hNav1.7 Tonic IC50 [5] of 1.13 nM and a PX hNav1.6 Tonic IC50 [6] of 584 nM.
“Nva-[Nle6]JzTx-V(1-29) (peptide; modification not given)” gave a PX hNav1.7 Tonic IC50 [3] of 0.82 nM and a PX mNav1.4 Tonic IC50 [9] of 4.54 nM.
With “Pra-[Nle6;Trp29]JzTx-V(1-29) (peptide; modification not given)” the PX mNav1.7 Tonic IC50 [2] was 10.7 nM, the mNav1.7/hNav1.7 [2] was 2.23 and the PX hNav1.7 Tonic IC50 [3] was 4.79 nM. The PX mNav1.4 Tonic IC50 [9] was 9.67 nM, the mNav1.4/mNav1.7 [9] was 0.91 and the IC50, IonWorks Quattro electrophysiology [10] was 0.019 µM.
For “Leu-[Nle6]JzTx-V(1-29) (peptide; modification not given)”, the PX mNav1.7 Tonic IC50 [2] was 1.33 nM, the mNav1.7/hNav1.7 [2] was 10.2 and the PX hNav1.7 Tonic IC50 [3] was 0.13 nM. It also gave a PX mNav1.4 Tonic IC50 [9] of 1.8 nM and a mNav1.4/mNav1.7 [9] of 1.4.
With “Pra-[Nle6; Trp29]JzTx-V(1-29) (peptide; modification not given)” the Nav1.5/Nav1.7 [7] was 479, the PX hNav1.5 Tonic IC50 [7] was 2290 nM and the PX hNav1.7 Tonic IC50 [5] was 4.79 nM. For the same substance, the Nav1.4/Nav1.7 [8] was 8 and the PX hNav1.4 Tonic IC50 [8] was 37 nM.
“Pra-[Nle6;5-BrW24;Glu28]JzTx-V(1-29) (peptide; modification not given)” was tested, and the PX rNav1.7 Tonic IC50 [1] was 2.43 nM, the rNav1.7/hNav1.7 [1] was 62.3 and the PX mNav1.7 Tonic IC50 [2] was 0.911 nM. It also gave a mNav1.7/hNav1.7 [2] of 23.3, a PX hNav1.7 Tonic IC50 [3] of 0.039 nM and a PX hNav1.7 Tonic IC50 [5] of 0.059 nM. For the same substance, the PX hNav1.6 Tonic IC50 [6] was 49.2 nM.
With “Pra-[Nle6; Gln28]JzTx (peptide; modification not given)” the Nav1.5/Nav1.7 [7] was 3530, the PX hNav1.5 Tonic IC50 [7] was 3220 nM and the PX hNav1.7 Tonic IC50 [5] was 0.912 nM. For the same substance, the Nav1.4/Nav1.7 [8] was 12 and the PX hNav1.4 Tonic IC50 [8] was 10.7 nM.
“Pra-[Glu1, 28; Nle6]JzTx-V(1-29) (peptide; modification not given)” was tested, and the Nav1.5/Nav1.7 [7] was greater than 887, the PX hNav1.5 Tonic IC50 [7] was greater than 1000 nM and the PX hNav1.7 Tonic IC50 [5] was 1.13 nM. The Nav1.4/Nav1.7 [8] was 164 and the PX hNav1.4 Tonic IC50 [8] was 185 nM.
Substance “Pra-[Nle6,Glu28]JzTx-V(1-29) (peptide; modification not given)” has a PX rNav1.7 Tonic IC50 [1] of 0.641 nM, a rNav1.7/hNav1.7 [1] of 1.17 and a PX mNav1.7 Tonic IC50 [2] of 9.86 nM. For the same substance, the mNav1.7/hNav1.7 [2] was 18, the PX hNav1.7 Tonic IC50 [3] was 0.548 nM and the mNav1.4/mNav1.7 [9] was 12. It also gave a PX hNav1.7 Tonic IC50 [5] of 0.548 nM, a WCPC Mean IC50, partially inactivated [5] of 0.62 nM and a PX hNav1.6 Tonic IC50 [6] of 183 nM. For the same substance, the WCPC Mean IC50, partially inactivated [11] was 30.7 nM.
Substance “Atz(NPEG10)-[Nle6]JzTx-V(1-29) (peptide; modification not given)” has an IC50, IonWorks Quattro electrophysiology [12] of 0.15 µM, a Nav1.4/Nav1.7 (ratio of IC50) [12] of 2 fold and a PX hNav1.5 Tonic IC50 [7] of 3770 nM. It also gave an IC50, IonWorks Quattro electrophysiology [13] of 4.3 µM, an IC50, IonWorks Quattro electrophysiology [10] of 0.07 µM and an IC50, IonWorks Quattro electrophysiology [14] of 0.13 µM. The PX hNav1.7 Tonic IC50 [5] was 6 nM and the PX hNav1.4 Tonic IC50 [8] was 8 nM.
For “Pra-[Nle6;Glu28;Phe29]JzTx-V(1-29) (peptide; modification not given)”, the PX rNav1.7 Tonic IC50 [1] was 0.296 nM, the rNav1.7/hNav1.7 [1] was 0.76 and the PX mNav1.7 Tonic IC50 [2] was 3.45 nM. It also gave a mNav1.7/hNav1.7 [2] of 8.9 and a PX hNav1.7 Tonic IC50 [3] of 0.388 nM.
In the case of “Homodimeric Conjugate No. 2 (peptide; modification not given)”, the PX hNav1.5 Tonic IC50 [7] is reported as 720 nM and 1180 nM.

Where “and” joins values, the source holds several entries; their conditions need not be identical. Identical values can stand only once. Like-named read-outs stand apart in the source and are kept apart here.
